Patent publication US20240003880A1 (TRUSTEES OF COLUMBIA UNIVERSITY IN THE CITY OF NEW YORK, published 2024)

Target: SARS-CoV-2 nucleocapsid phosphoprotein (SARS-CoV-2, UniProt P0DTC9 1-419)
Test: sandwich ELISA, 9-24 as capture, chimeric antibody as detector (FIG. 8B)

B1: chimeric 9-11 (antibody, V domains shown)
VH: QVQLVQSGAEVKKPGASVKVSCKASGYTFTSYAISWVRQAPGQGLEWMGWISAYTGNTNYAQKLQGRVTMTTDTSTSTAYMELRSLRSDDTAVYYCARNGWDYDTSGTHDYWGQGTLVTVSS
VL: not shown
- binding result: binds

B2: chimeric 9-15 (antibody, V domains shown)
VH: QVQLVQSGAEVKKPGSSVKVSCKASGGTFSSYAISWVRQAPGQGLEWMGGIIPIFGTANYAQKFQGRVTITAEESTSTAYMELSSLRSEDTAVYYCARDGWAAAGPDTSLLGTFDIWGQGTMVTVSS
VL: QSALTQPPSVSGSPGQSVTISCTGTSSDVGSYNRVSWYQQPPGTAPKLIIYEVSNRPSGVPDRFSGSKSGNTASLTISGLQAEDEADYYCSSYTSSSTYVVFGGGTKLTVLG
- binding result: binds
